# What follows is the remainder of the data, with few or none of the hits.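 Rule for the calls: active = AUC significantly below DMSO controls by Student t-fit with adjusted P under 0.01; inactive = not significantly reduced.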
# Legend:
# [1] = tested on: Vibrio cholerae; test: growth AUC normalised to DMSO control (fraction of control); higher = less growth inhibition, active = hit call of the paper; conditions: 20 µM
# [2] = tested on: Yersinia pseudotuberculosis; test: as above; conditions: 20 µM
smiles,measurement,setting,value
COc1cc(Br)c(C[N+]2(CCOCCC3CCC4CC3C4(C)C)CCOCC2)cc1OC (configuration not stated) [Pinaverium bromide],growth AUC normalised to DMSO control,[1],inactive: 1.01
same,growth AUC normalised to DMSO control,[2],inactive: 1.01
